Source: ChEMBL document CHEMBL3272034
Active and inactive are the calls of the source. No cut-off for these calls is given here.

Tested on: Ehrlich
Assay: Antitumor activity against mouse Ehrlich carcinoma cells implanted in CD1 mouse assessed as tumor free survivor at 0.5 to 2.5 mg/kg administered every day for 6 days starting on day of challenge

Compound: Cc1[nH]c(=O)[nH]c(=O)c1CN(CCCl)CCCl
- Activity: inactive
